Measured values from several laboratories, pooled; numbers as filed in NIAID ChemDB.

Shared fields: growth or infection tests; agent: HIV-1; cells: OM-10.1; endpoint: EC50

An empty or dashed field is not shown.

structure,strain or isolate,read by,result
COc1ccc2sc3c(c2c1)N(Cc1ccccc1Cl)CCNC3=O,,p24,<0.04 µM
CCn1cc(C(=O)O)c(=O)c2cc(F)c(N3CCN(c4ccccc4OC)CC3)c(OC(F)F)c21,,p24,0.042 µM
Cn1c2ccccc2c(=O)c2c(O)ccc(O)c21,IIIB,p24 / ELISA,>0.36 µg/mL
COc1ccc2[nH]c3ccccc3c(=O)c2c1OC,IIIB,p24 / ELISA,>32 µg/mL
COc1ccc2[nH]c(=O)c(CN(Cc3cccnc3)S(=O)(=O)c3cccc4nsnc34)cc2c1,IIIB,p24 / ELISA,0.617 µM
COc1cccc2c1c(=O)c1ccccc1n2C,IIIB,p24 / ELISA,8.8 µg/mL
Cn1cc(C(=O)O)c(=O)c2cc(F)c(N3CC=C(c4ccccc4)CC3)c(C(F)(F)F)c21,,ELISA,33 µM
COC(=O)C1=C2Nc3ccccc3[C@@]23CCN2C[C@]4(C[C@@H]5C[C@]67CC(=O)O[C@H]6CCC6NC[C@@]8(c9cccc(OC)c9N(C4)[C@@]58O)[C@@H]67)[C@@H]4OCC[C@]4(C1)[C@H]23,,luciferase,2.5 µM
Cn1c2ccccc2c(=O)c2c(O)cccc21,IIIB,p24 / ELISA,2 µg/mL
COc1ccc(O)c2c(=O)c3ccccc3n(C)c12,IIIB,p24 / ELISA,>16 µg/mL
COc1cccc2c1c(=O)c1ccccc1n2C,IIIB,p24 / ELISA,8.8 µg/mL
Cn1c2ccccc2c(=O)c2c(O)c(O)ccc21,IIIB,p24 / ELISA,>7.8 µg/mL
COc1ccc2sc3c(c2c1)SCC(C)(C)/C3=N\O,,p24,0.5 µM
COc1ccc(O)c2c(=O)c3ccccc3n(C)c12,IIIB,p24 / ELISA,>16 µg/mL
Cn1cc(C(=O)O)c(=O)c2cc(F)c(N3CC=C(c4ccccc4)CC3)c(C(F)(F)F)c21,,p24,0.04 µM
COc1ccc2oc3c(c2c1)N(CC(C)C)CCN(C)C3=O,,p24,0.09 µM
COc1cc(OC)c2c(=O)c3ccccc3n(C)c2c1,IIIB,p24 / ELISA,3.2 µg/mL
COc1ccc2sc3c(c2c1)N(Cc1cccc(C)c1)CCNC3=O,,p24,<0.04 µM
O=S(=O)(c1cccc2cnccc12)N1CCNCC1,IIIB,p24 / ELISA,1.26 µg/mL

The last 2 rows once more:

COc1ccc2sc3c(c2c1)N(Cc1cccc(C)c1)CCNC3=O ; read by: p24 ; result: <0.04 µM
O=S(=O)(c1cccc2cnccc12)N1CCNCC1 ; strain or isolate: IIIB ; read by: p24 / ELISA ; result: 1.26 µg/mL

ECn: concentration that inhibits the pathogen or its effect by n%. Lines come from different laboratories, so protocols vary.